Test results reported in ChEMBL document CHEMBL4296182, “CO-ADD screening of NIH NCI Diversity Set V”.

How the values were obtained:
Pseudomonas aeruginosa = conditions: ATCC 27853, Concentration 20.0 uM
Candida albicans = conditions: ATCC 90028, Concentration 20.0 uM
Klebsiella pneumoniae = conditions: ATCC 700603, Concentration 20.0 uM
Cryptococcus neoformans = conditions: ATCC 208821, Concentration 20.0 uM
Acinetobacter baumannii = experiment: Antibacterial activity against Acinetobacter baumannii ATCC 19606 (CO-ADD:GN_034); MIC in CAMBH media using NBS plates, by Resazurin F(560/590); assay type: functional; conditions: Concentration 20.0 uM
Escherichia coli = experiment: Antibacterial activity against Escherichia coli ATCC 25922 (CO-ADD:GN_001); MIC in CAMBH media using NBS plates, by Resazurin F(560/590); assay type: functional; conditions: Concentration 20.0 uM
Staphylococcus aureus = experiment: Antibacterial activity against Staphylococcus aureus MRSA ATCC 43300 (CO-ADD:GP_020); MIC in CAMBH media using NBS plates, by Resazurin F(560/590); assay type: functional; conditions: Concentration 20.0 uM

| SMILES | inhibition (Pseudomonas aeruginosa) [%] | inhibition (Candida albicans) [%] | inhibition (Klebsiella pneumoniae) [%] | inhibition (Cryptococcus neoformans) [%] | inhibition (Acinetobacter baumannii) [%] | inhibition (Escherichia coli) [%] | inhibition (Staphylococcus aureus) [%] |
| --- | --- | --- | --- | --- | --- | --- | --- |
| O=[As](O)(c1cccs1)c1cccs1 | 12.2 | 6.82 | 13.2 | – | – | – | – |
| O=C(O)CNc1ccc([As](=O)(O)O)cc1 | -5.72 | -0.31 | 13.1 | -2.42 | – | – | – |
| O=C(O)COc1ccc([As](=O)(O)O)cc1[N+](=O)[O-] | 15.6 | 1.79 | 10.3 | -3.88 | – | – | – |
| CCOC(=O)Nc1cccc([As](=O)(O)O)c1 | -9.75 | 8.09 | 17.9 | -0.74 | – | – | – |
| Nc1ccc([As](=O)(O)c2ccc([N+](=O)[O-])cc2)cc1 | 22 | 3.13 | 12.5 | – | – | – | – |
| O=[N+]([O-])c1ccc(OP2(=O)COCCO2)cc1 (centres undefined) | -4.49 | 6.14 | 10.9 | -7.05 | 1.25 | -6.91 | -7.59 |
| Nc1cccc([As](=O)(O)c2ccccc2)c1 | 5.26 | -0.55 | 18.4 | -9.06 | – | – | – |
| COc1ccc(O)c2c(=O)c3c(OC)cc4c(c3oc12)[C@@H]1C=CO[C@@H]1O4 | 13.5 | 0.86 | 5.12 | 6.09 | – | – | – |
| O=[As](O)(c1ccc(Cl)cc1)C1CCCCC1O (centres undefined) | 19 | 0.35 | 10.7 | -9.45 | – | – | – |
| CC(=O)Nc1ccc([As](=O)(O)O)cc1 | 2.82 | 5.27 | 6.95 | -7.62 | – | – | – |
| CCOP(=O)(Nc1ccc(C)cn1)OCC | 8.78 | 2.14 | 8 | -4.73 | – | – | – |
| O=C(Nc1cc([As](=O)(O)O)ccc1O)c1ccccc1 | 21.8 | -0.29 | 9.13 | – | – | – | – |
| Nc1cccc2ccc([As](=O)(O)O)cc12 | – | 5.26 | 11.6 | 2.47 | – | – | – |
| Nc1cccc2c([As](=O)(O)O)cccc12 | 12.2 | -1.1 | – | -7.53 | – | – | – |
| O=P1(N(CCCl)CCCl)OCCC2CCCCN21 (centres undefined) | 20.1 | 1.77 | 8.56 | -4.28 | – | – | – |
| CCOC(=O)Nc1ccc([As](=O)(O)O)c(O)c1 | -2.18 | 0.44 | 4.46 | -6.78 | – | – | – |
| O=[As](O)(O)c1cccnc1 | 6.33 | 0.55 | 5.22 | -2.41 | – | – | – |
| O=[As](O)(c1cccc(O)c1)c1cccc(O)c1 | -7.13 | 1.82 | 11.7 | -5.47 | – | – | – |
| Nc1ccc([As](=O)(O)O)c(O)c1 | 6.7 | -0.86 | 9.97 | – | – | – | – |
| O=[N+]([O-])c1ccc(Nc2ccc(Oc3ccc([N+](=O)[O-])cc3[N+](=O)[O-])cc2)c([N+](=O)[O-])c1 | 24.6 | -0.35 | 14.9 | -2.63 | – | – | – |
| c1cc(-c2nn[nH]n2)ccc1-c1nn[nH]n1 | -2.02 | 3.69 | 16.4 | 0.4 | – | – | – |
| O=C(O)c1ccccc1[As](=O)(O)O | 5.99 | 10.2 | 10.8 | -2.52 | – | – | – |
| O=[As]1(O)c2ccccc2-c2ccccc21 | -4.16 | 4.49 | 14.6 | -4.96 | – | – | – |
| C[As](=O)(O)c1cccc(C(=O)O)c1 | 10.3 | 5.01 | -0.86 | 11.1 | – | – | – |
| O=[As](O)(c1ccccc1)c1ccc(O)cc1 | 4.81 | 1.56 | 9.32 | – | – | – | – |
| COc1cc(I)ccc1[As](=O)(O)O | 19.5 | -1.48 | 13.2 | 0.69 | – | – | – |
| CCCOP(=S)(Nc1nc(N)cc(O)n1)OCCC | 16.7 | 2.06 | 7.63 | -4.47 | – | – | – |
